Measured values: patent US7875604B2, “Compounds that inhibit HIV particle formation” (University of Virginia Patent Foundation, priority 2004, dated 2011)

The compounds below were run on U1 cells latently infected with HIV-1 (assay: U1 latency activation assay (TNF-α induced, supernatant reverse transcriptase)). Conditions: U1 cell assay, Table 8; ratio CC50 / IC50.
Format: cell-based
Description: U1 cells were obtained from the AIDS Research and Reference Reagent Program and maintained under standard culture conditions in RPMI 1640 supplemented with 10% fetal bovine serum (heat inactivated), 2 mM L-glutamine, 100 U/mL penicillin and 100 μg/mL streptomycin. U1 cells are derived from the histocytic leukemia cell line U937, and contain an integrated copy of a cytokine and/or phorbol inducible provirus (HIV-1IIIB). Cultures were maintained in such a way as to ensure exponential growth of the populations. Addition of TNF-α to the cell culture induces HIV-1, so that inhibition of virus production indicates an inhibition of a post-integration function of the HIV-1 life cycle. This is where an inhibitor of Rev function would be expected to act. […]
At the time of the assay, cells were collected by centrifugation and counted by hemacytometer. If cell viability by Trypan Blue dye exclusion was less than 70% the assay was terminated. The cells were adjusted to 5×10^4 cells/mL and 100 μL placed in 96 well plates with 100 μL media containing a final concentration of 5 ng/mL TNF-α and the test compound. Cultures were incubated for 3 days and supernatants harvested. Compound toxicity was determined by MTS dye reduction. Virus expression was measured by supernatant reverse transcriptase activity.
Reverse transcriptase was assayed to measure virus particle release as described above for the PBMC assay.
Compounds were tested in the U1 latency assay using the maximum high-test concentration possible based on the supplied stocks which are listed in table 3. Compounds were tested using the maximum high-test concentration possible based on the supplied stocks. Compounds were prepared at a 2× high-test concentration by combining drug stock with tissue culture media at a ratio of 5 μL of drug to 995 μL of media. This 2× high-test sample was subsequently serially diluted in tissue culture media using 1/2 log dilutions. This series of 2× concentrated drug was subsequently diluted 1:1 by combining with an equal volume of cells in media in the 96-well plates used for the assay. Temacrazine a known inhibitor of HIV transcription was used as a control compound that is active in the post-integration part of the HIV life cycle.
Compounds were tested using the maximum high-test concentration possible based on the supplied stocks. Compounds were prepared at a 2× high-test concentration by combining drug stock with tissue culture media at a ratio of 5 μL of drug to 995 μL of media. This 2× high-test (HT) sample was subsequently serially diluted in tissue culture media using 1/2 log dilutions. This series of 2× concentrated drug was subsequently diluted 1:1 by combining with an equal volume of cells in media in the 96-well plates used for the assay.

| SMILES | TI |
| --- | --- |
| CN1CCN(C(=O)c2cc(Cl)nnc2Cl)CC1 [Compound 513] | >10.6 |
| Cc1ccc(NC(=O)c2sc(Cl)nc2-c2ccccc2)c(C)c1 [Compound 423] | >1.77 |
| N#Cc1c(C(F)(F)F)nc2ccc(F)cc2c1N [Compound 212] | 59.1 |
| Cc1ccc2c(N)c(C(N)=O)sc2n1 [Compound 314] | >35.5 |
| CC1CCc2nc3sc(C(N)=O)c(N)c3cc2C1 (stereo not shown) [Compound 336] | >25.7 |
| CCOC(=O)c1c2c(nc3sc(C(N)=O)c(N)c13)CCCC2 [Compound 327] | 109 |
| COc1ccc(Nc2nc(-c3ccccc3F)nc3ccccc23)cc1 [Compound 749] | 9.51 |
| CCOC(=O)c1ccc(Nc2ncnc3ccccc23)cc1 [Compound 720] | >20.5 |
| CC(=O)c1ccc(Nc2nc(-c3ccccc3)nc3ccccc23)cc1 [Compound 755] | >42.1 |
| Clc1ccccc1Nc1nc(-c2ccc(Br)cc2)nc2ccccc12 [Compound 731] | >45.5 |
| Cc1nc2sc(C(N)=O)c(N)c2c(C)c1CC(=O)c1ccccc1 [Compound 315] | >100 |
| NC(=O)c1sc2nc3ccccc3cc2c1N [Compound 337] | >31.3 |
| CCOC(=O)c1c(C)nc2sc(C(N)=O)c(N)c2c1-c1ccccc1 [Compound 338] | >14.3 |
| Cc1nc(Cl)sc1C(=O)Nc1ccc(C(F)(F)F)cc1 [Compound 418] | >34.4 |
| COc1ccc2cc3c(N)n[nH]c3nc2c1 [Compound 89246, 7-methoxy-1H-pyrazolo[3,4-b]quinolin-3-ylamine] | >169 |
| COc1ccc(-c2cnc(OC(C)(C)C)nc2OC(C)(C)C)cc1 [Compound 618] | 2.93 |
| COCc1cc(C)nc2sc(C(N)=O)c(N)c12 [Compound 320] | >144 |
| NC(=O)c1sc2nc(-c3cccnc3)ccc2c1N [Compound 316] | >3.21 |
| O=C(Nc1ccccc1)c1sc(Cl)nc1C(F)(F)F [Compound 412] | 3.10 |
| O=C(Nc1ccccc1F)c1sc(Cl)nc1C(F)(F)F [Compound 415] | 1.37 |
| Nc1c2c(nc3ccc([N+](=O)[O-])cc13)CCCC2=O [Compound 213] | 70.9 |
| COc1ccc(-c2c(C(C)=O)c(C)nc3sc(C(N)=O)c(N)c23)cc1 [Compound 311] | >45.5 |

| SMILES | TI |
| --- | --- |
| O=C(c1cc(Cl)nnc1Cl)N1CCOCC1 [Compound 512] | >2.85 |
| COc1ccccc1Nc1nc(-c2ccccc2O)nc2ccccc12 [Compound 751] | >1.05 |
| NC(=O)c1sc2nc(Cc3ccccc3)cc(C(F)(F)F)c2c1N [Compound 334] | >31.6 |
| O=C(NCc1ccccn1)c1cc(Cl)nnc1Cl [Compound 515] | >5.51 |
| Cc1nc(Cl)sc1C(=O)Nc1ccc(C(C)(C)C)cc1 [Compound 420] | >11.0 |
| CN1CCc2nc3sc(C(N)=O)c(N)c3cc2C1 [Compound 319] | >1.86 |
| Cc1nc(Oc2ccccc2)c2ccccc2n1 [Compound 756] | 29.9 |
| CCCc1ccc2c(N)c(C(N)=O)sc2n1 [Compound 329] | 28.8 |
| Cc1ccc(Nc2ncnc3ccccc23)cc1C [Compound 719] | >43.4 |
| COC(=O)c1ccc(Nc2nc(-c3ccccc3Cl)nc3ccccc23)cc1 [Compound 728] | 1.31 |
| Cc1cc(C(F)(F)F)c2c(N)c(C(N)=O)sc2n1 [Compound 318] | >316 |
| Cc1cc2c(N)c(C(N)=O)sc2nc1C [Compound 328] | 34.9 |
| NC(=O)c1sc2nc(-c3cccs3)cc(-c3ccc(F)cc3)c2c1N [Compound 322] | 1.97 |
| CC(=O)Nc1ccc(Nc2nc(-c3ccccc3)nc3ccccc23)cc1 [Compound 754] | 4.09 |
| COc1ccccc1NC(=O)c1cc(Cl)nnc1Cl [Compound 511] | 1.21 |
| NC(=O)c1sc2nc3c(cc2c1N)CCCC3 [Compound 321] | >38.7 |
| CCc1c(C)nc2sc(C(=O)NCC(=O)O)c(N)c2c1C [Compound 331] | >1.14 |
| Clc1ccc(-c2nc(Nc3ccc(Oc4ccccc4)cc3)c3ccccc3n2)cc1 [Compound 753] | 1.02 |
| Cc1ccc(-c2cc(C(F)(F)F)c3c(N)c(C(N)=O)sc3n2)cc1 [Compound 332] | <0.30 |
| Cc1ccc(NC(=O)c2sc(Cl)nc2C)cc1C [Compound 416] | >97.8 |
| Cc1ccc(NC(=O)c2sc(Cl)nc2C)cc1 [Compound 417] | 32.0 |
| O=C(Nc1cccc(F)c1)c1sc(Cl)nc1C(F)(F)F [Compound 413] | 2.45 |

| SMILES | TI |
| --- | --- |
| COc1cc2cc(C(=O)Nc3ccccc3)c(N)nc2cc1OC [Compound 113] | >2.74 |
| O=C(Nc1cccc(C(F)(F)F)c1)c1sc(Cl)nc1C(F)(F)F [Compound 414] | 1.01 |
| Cc1cccc(-c2nc(Nc3ccc(I)cc3)c3ccccc3n2)c1 [Compound 718] | 1.06 |
| CN(C)c1ccnc2sc(C(N)=O)c(N)c12 [Compound 325] | >267 |
| FC(F)(F)c1cccc(Nc2nc(-c3ccccc3)nc3ccccc23)c1 [Compound 722] | 1.60 |
| NC(=O)c1sc2nc3c(cc2c1N)CCC3 [Compound 324] | >34.2 |
| Cc1ccc(-c2cc(-c3ccccc3)nc3sc(C(N)=O)c(N)c23)cc1 [Compound 323] | 30.3 |
| Fc1ccccc1-c1nc(Nc2cccc(C(F)(F)F)c2)c2ccccc2n1 [Compound 748] | 3.14 |
| Cc1n[nH]c2nc3ccc(Cl)cc3c(-c3ccccc3)c12 [Compound 111] | >29.4 |
| COc1ccc(-c2cc(-c3ccccc3)nc3sc(C(N)=O)c(N)c23)cc1 [Compound 335] | 38.2 |
| COc1ccc(-c2cnc(S(C)(=O)=O)nc2)cc1 [Compound 615] | >6.30 |
| C=CCc1c(C)nc2ccc(OC)cc2c1N [Compound 214] | >8.16 |
| COc1ccc2nc3c(c(N)c2c1)CCCC3 [Compound 211] | 5.32 |
| CSc1ncc2c(n1)[nH]c1ccccc12 [Compound 616] | >82.0 |
| Cc1n[nH]c2nc3ccc(Br)cc3c(-c3ccccc3)c12 [Compound 112] | >46.3 |
| COc1ccc(-c2cc(-c3ccc(OC)cc3)c3c(N)c(C(N)=O)sc3n2)cc1 [Compound 339] | 29.9 |
| Cc1cc2c(N)c(C(N)=O)sc2nc1-c1ccc(F)cc1 [Compound 330] | >10.9 |
| Cc1ccc(NC(=O)c2sc(Cl)nc2-c2ccccc2)cc1C [Compound 422] | >5.24 |
| COc1cc2cc3c(=O)[nH]c(-c4ccc(C)cc4)nc3nc2cc1OC [Compound 114] | >5.21 |
| Brc1ccc(Nc2nc(-c3ccncc3)nc3ccccc23)cc1 [Compound 734] | >3.07 |
